# Measured values reported in patent US20230045284.
# Legend:
# [1] = molecular target: GST-Cdc42, P60953
# [2] = molecular target: T1, GST-RalA, P11233
# T1 chain: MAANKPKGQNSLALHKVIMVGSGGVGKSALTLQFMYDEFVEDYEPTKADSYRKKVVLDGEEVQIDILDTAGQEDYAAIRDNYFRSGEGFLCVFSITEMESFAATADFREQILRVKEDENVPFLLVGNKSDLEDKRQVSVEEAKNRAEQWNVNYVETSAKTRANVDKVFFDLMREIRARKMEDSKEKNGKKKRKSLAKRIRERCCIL
# [3] = molecular target: GST-RhoA, P61586
protein,measurement,setting,value
Recombinant 6xHis-tagged DUF5Vv (rDUF5Vv; V. vulnificus CMCP6 MARTXVv Q3596-L4089) (protein) QELKERAKVFAKPIGASYQGILDQLDLVHQAKGRDQIAASFELNKKINDYIAEHPTSGRNQALTQLKEQVTSALFIGKMQVAQAGIDAIAQTRPELAARIFMVAIEEANGKHVGLTDMMVRWANEDPYLAPKHGYKGETPSDLGFDAKYHVDLGEHYADFKQWLETSQSNGLLSKATLDESTKTVHLGYSYQELQDLTGAESVQMAFYFLKEAAKKADPISGDSAEMILLKKFADQSYLSQLDSDRMDQIEGIYRSSHETDIDAWDRRYSGTGYDELTNKLASATGVDEQLAVLLDDRKGLLIGEVHGSDVNGLRFVNEQMDALKKQGVTVIGLEHLRSDLAQPLIDRYLATGVMSSELSAMLKTKHLDVTLFENARANGMRIVALDANSSARPNVQGTEHGLMYRAGAANNIAVEVLQNLPDGEKFVAIYGKAHLQSHKGIEGFVPGITHRLDLPALKVSDSNQFTVEQDDVSLRVVYDDVANKPKITFKGSL,"in vitro cleavage of rGST-GTPase, SDS-PAGE",[1],None of the other GTPase was cleaved by DUF5Vv
same,"in vitro cleavage of rGST-GTPase, SDS-PAGE",[2],None of the other GTPase was cleaved by DUF5Vv
same,"in vitro cleavage of rGST-GTPase, SDS-PAGE",[3],None of the other GTPase was cleaved by DUF5Vv
